What was measured:
JEV strain AT31 [1] = experiment: microbe, parasite or virus in culture; settings: Japanese encephalitis virus, 24 h; for IC50: Vero
JEV strain AT31 [2] = experiment: Immunofluorescence staining assay (IFA), AT31 infection of Vero cells; settings: Japanese encephalitis virus, read-out: inhibition rate
JEV strain AT31 [3] = experiment: Time-of-addition experiment (plaque assay); format: cell-based, Japanese encephalitis virus; settings: for inhibition of JEV posttreatment: postinfection (1 to 24 h); for suppression of JEV in pretreatment: preinfection (−1 to 0 h); for suppression of JEV in virucidal treatment: virus incubated with drug 1 μM, 37°C, 1 h, diluted 100-fold

Structure (SMILES)	inhibition at 50 µM (JEV strain AT31 [1]; Primary screening of 1034 compounds in the natural extracts library) [%]	IC50 (JEV strain AT31 [1]) [nM]	inhibition at 0.196 µM (JEV strain AT31 [2]) [%]	inhibition of JEV during treatment (JEV strain AT31 [3]; 10 μM, during infection (0 to 1 h))	inhibition of JEV posttreatment (JEV strain AT31 [3]; 10 μM)	suppression of JEV in pretreatment (JEV strain AT31 [3]; 10 μM)	suppression of JEV in virucidal treatment (JEV strain AT31 [3])	inhibition at 50 µM (JEV strain AT31 [1]; primary screening of 1034 compounds in the natural extracts library, red numbers = obvious cytotoxicity, blue numbers = insoluble in DMSO (colours not visible)) [%]	inhibition at 0.392 µM (JEV strain AT31 [2]) [%]
C[C@@H]1O[C@@H](O[C@H]2C[C@@H](O)[C@]3(CO)[C@H]4[C@H](O)C[C@]5(C)[C@@H](C6=CC(=O)OC6)CC[C@]5(O)[C@@H]4CC[C@]3(O)C2)[C@H](O)[C@H](O)[C@H]1O [ouabain]	99.8	52.2	> 90	robust inhibition	full inhibitory effects	neither digoxin nor ouabain showed suppression	neither digoxin nor ouabain showed suppression		
C[C@H]1O[C@@H](O[C@H]2[C@@H](O)C[C@H](O[C@H]3[C@@H](O)C[C@H](O[C@H]4CC[C@@]5(C)[C@H](CC[C@@H]6[C@@H]5C[C@@H](O)[C@]5(C)[C@@H](C7=CC(=O)OC7)CC[C@]65O)C4)O[C@@H]3C)O[C@@H]2C)C[C@H](O)[C@@H]1O [digoxin]		103			full inhibitory effects	neither digoxin nor ouabain showed suppression	neither digoxin nor ouabain showed suppression	91.6	> 90
